Laboratory results reported in article PMC11623267, “Inhibitors of malaria parasite cyclic nucleotide phosphodiesterases block asexual blood-stage development and mosquito transmission” (Science Advances, 2024).

Test system: P. falciparum clinical isolates from Tororo and Busia Districts of Uganda
Assay: Ex vivo 72-hour SYBR Green assay, Ugandan clinical isolates
Format: cell-based, Plasmodium falciparum
Settings: curve fits
Description: Clinical isolates were from the Tororo District of Uganda, located in the central-eastern part of the county near the Kenya border. Tororo and surrounding areas have high-intensity, year-round malaria transmission. […] Patients reporting use of antimalarial treatment within the previous 30 days or with evidence of an infection with other Plasmodium species were excluded. Informed consent was obtained from patients and/or primary care givers (depending on age); children aged 8 to 17 years provided assent. Two to 5 ml of blood was collected by venipuncture in a heparin tube. […]
Samples were delivered to the adjacent IDRC laboratory at Tororo District Hospital or transported by car from Masafu Hospital on the day of collection for storage of blood spots on filter paper (for isolation of nucleic acids) and initiation of ex vivo culture of malaria parasites. […] Fluorescence was quantified using a BMG Fluostar Optima plate reader at an excitation of 485 nm and an emission of 530 nm, and data were plotted using GraphPad Prism 7. […] For each isolate, a Z′ factor to assess assay quality was calculated from positive controls (eight drug-free wells) and negative controls (eight parasite-free, red cell control wells). […]

| SMILES | H.S. (mean Hill slope) |
| --- | --- |
| CCNC(=O)c1cnc(OCC(C)C)c(-c2nc3c(C(C)C)n[nH]c3c(=O)[nH]2)c1 [SAL-0010333] | 2.98 |
| CC(C)c1[nH]nc2c(=O)[nH]c(Cc3ccccc3F)nc12 [SAL-0010042] | 2.93 |
